Experimental data: PubChem BioAssay AID504761 (Drosophila RNAi Screening Center, 2011)

Aim: 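Genome-wide fly cell screen for genes dengue virus requires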 (primary screen)
Cells: D.Mel-2 cells from Drosophila
Reagents: long dsRNA against Drosophila genes
Treatment: infection with dengue virus type 2; dose and infection time not stated
Measurement: 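Per well on two replicate plates, imaging gave the percent of cells positive for viral envelope protein, ranked by infection, and a nuclear count of cells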
Scale: infection score: higher = more virus-infected cells; cell count: higher = more cells in the well
Active means: 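Low infection ranks in the two replicates (chance level up to 0.065) followed by a retest with a 1.5-fold or larger significant decrease, p below 0.05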
Meaning of the calls: active = confirmed: knock-down lowers infection; inactive = not picked or not confirmed
The screen tested about 22,000 reagents; this is an unselected part of those with a known target gene and a result. In the full data, 116 (0.52%) were called active. 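Calls depend on retest data that are not deposited; infection was ranked per plate without normalising between plates; the unit of the infection score is not given.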 Raw values are not corrected between plates. The record does not give: the amount of reagent, the time to read-out.

| predicted target | dsRNA | infection score, replicate 1 | infection score, replicate 2 | cell count, replicate 1 | cell count, replicate 2 | outcome |
| --- | --- | --- | --- | --- | --- | --- |
| CG31195 | DRSC13440 | 1.58 | 1.99 | 6080 | 6138 | inactive |
| corolla | DRSC20102 | 27.1 | 7 | 3522 | 6825 | inactive |
| RpL18 (Ribosomal protein L18) | DRSC11016 | 0.77 | 1.41 | 907 | 994 | inactive |
| RpL18 (Ribosomal protein L18) | DRSC22323 | 1.27 | 2.5 | 1413 | 1158 | inactive |
| GlcAT-I (Glucuronyltransferase I) | DRSC17307 | 4.15 | 4.79 | 6162 | 6115 | inactive |
| hmw (hemingway) | DRSC16277 | 2.02 | 4.34 | 6124 | 6135 | inactive |
| CG1637 | DRSC18865 | 1.1 | 3.64 | 6356 | 5983 | inactive |
| CG1637 | DRSC19748 | 28.2 | 1.99 | 6240 | 6469 | inactive |
| CG1637 | DRSC19749 | 1.34 | 2.66 | 6404 | 6510 | inactive |
| CG1637 | DRSC29080 | 22.5 | 11.3 | 5420 | 6138 | inactive |
| t-Grip91 (testis-specific gamma-tubulin ring protein 91) | DRSC01506 | 0.22 | 0.6 | 6304 | 6355 | inactive |
| Pcmt (Protein-L-isoaspartate (D-aspartate) O-methyltransferase) | DRSC12363 | 16.6 | 12.2 | 5384 | 5589 | inactive |
| Pex14 (Peroxin 14) | DRSC11754 | 9.42 | 6.88 | 6093 | 5814 | inactive |
| Pex14 (Peroxin 14) | DRSC28339 | 13.2 | 7.58 | 5712 | 5617 | inactive |
| CG31436 | DRSC14661 | 2.67 | 3.9 | 6181 | 6892 | inactive |
| CG31436 | DRSC24566 | 6.45 | 11.6 | 5723 | 5468 | inactive |
| Frq2 (Frequenin 2) | DRSC20245 | 16.6 | 13.5 | 5928 | 6564 | inactive |
| Frq2 (Frequenin 2) | DRSC26037 | 4.76 | 4.44 | 6699 | 6165 | inactive |
| CG9360 | DRSC20180 | 2.47 | 7.78 | 6308 | 6302 | inactive |
| Tengl3 (Testis EndoG-Like 3) | DRSC22288 | 3.06 | 5.1 | 5419 | 6112 | inactive |
| Tengl3 (Testis EndoG-Like 3) | DRSC27773 | 1.49 | 23.7 | 6798 | 5893 | inactive |
| CtsL2 (Cathepsin L2) | DRSC06978 | 21.9 | 21.1 | 5480 | 5773 | inactive |
| mfr (misfire) | DRSC10543 | 0.78 | 2.84 | 6657 | 6136 | inactive |
| CG5382 | DRSC15786 | 8.79 | 1.62 | 6288 | 6561 | inactive |
| CG5866 | DRSC15900 | – | 16.1 | 462 | 4731 | inactive |

In a second layout: 4 of the entries above
predicted target,dsRNA,"infection score, replicate 1","infection score, replicate 2","cell count, replicate 1","cell count, replicate 2",outcome
corolla,DRSC20102,27.1,7,3522,6825,inactive
RpL18 (Ribosomal protein L18),DRSC11016,0.77,1.41,907,994,inactive
RpL18 (Ribosomal protein L18),DRSC22323,1.27,2.5,1413,1158,inactive
GlcAT-I (Glucuronyltransferase I),DRSC17307,4.15,4.79,6162,6115,inactive

Further reagents:
| predicted target | dsRNA | infection score, replicate 1 | infection score, replicate 2 | cell count, replicate 1 | cell count, replicate 2 | outcome |
| --- | --- | --- | --- | --- | --- | --- |
| Piezo | DRSC03092 | 7.31 | 7.39 | 5989 | 6764 | inactive |
| CG33506 | DRSC05981 | 18.3 | 14 | 5472 | 6459 | inactive |
| PpD3 (Protein phosphatase D3) | DRSC16796 | 0.42 | 3.7 | 6630 | 6159 | inactive |
| EloB (Elongin B) | DRSC16663 | 6.14 | 6.22 | 6287 | 6573 | inactive |
| Cnx14D (Calnexin 14D) | DRSC20214 | 13.9 | 15.5 | 6465 | 5425 | inactive |
| Cnx14D (Calnexin 14D) | DRSC25425 | 11.6 | 10.3 | 6660 | 4624 | inactive |
| Cdk4 (Cyclin-dependent kinase 4) | DRSC07358 | 10.4 | 6.23 | 6678 | 6401 | inactive |
| Cdk4 (Cyclin-dependent kinase 4) | DRSC27263 | 16.6 | 22 | 6074 | 6224 | inactive |
| CG14183 | DRSC10182 | 2.75 | 1.93 | 5826 | 6988 | inactive |
| Obp56i (Odorant-binding protein 56i) | DRSC05812 | 0.7 | 2.09 | 6387 | 6329 | inactive |
| rsh (radish) | DRSC23355 | 9.77 | 6.5 | 4164 | 2938 | inactive |
| Ypel (Yippee-like) | DRSC17996 | 8.47 | 1.97 | 7004 | 7000 | inactive |
| Ypel (Yippee-like) | DRSC26440 | 5.05 | 1.94 | 5841 | 6457 | inactive |
| Icmt (Isoprenylcysteine carboxyl methyltransferase) | DRSC09834 | 6.47 | 0.6 | 6224 | 6659 | inactive |
